Earlier results as cited in US20070059684A1 (priority 1995, published 2007).

System: tcm1/mak8 mutants
Details: cited from earlier work

trichodermin
effectiveness in tcm1/mak8 mutants: ineffective
